Results of unrelated studies side by side (data: NIAID ChemDB).

Shared fields: toxicity to cultured cells; read-out: CC50

An empty or dashed field is not shown. CCn: concentration that lowers growth or viability of the cells by n%. Rows are shuffled and stem from different studies.

compound | cells | method | value
CC(=O)O[C@H]1C[C@H](n2cc(C)c(=O)[nH]c2=O)O[C@@H]1COP(=O)(OC[C@H]1O[C@@H](n2cc(C)c(=O)[nH]c2=O)C[C@@H]1OC(C)=O)OCC(Cl)(Cl)Cl | JM | - | >1000 µM
CC1(C)C(=O)NN=C1c1cccc(NC(=O)Nc2ccc(F)c(F)c2)c1 | NHDF | - | >20 µM
COCP(=O)(OC[C@@H]1O[C@H](n2cc(C)c(=O)[nH]c2=O)C[C@H]1N=[N+]=[N-])OC[C@H]1O[C@@H](n2cc(C)c(=O)[nH]c2=O)C[C@@H]1N=[N+]=[N-] | CEM-SS | - | 31 µM
COC(=O)c1cc(-c2cccs2)nc2ccccc12 | BJ | - | >20 µM
CC1c2ccccc2CN1S(=O)(=O)c1ccc2[nH]c(=O)[nH]c2c1 | MT-2 human T-cells | MTT | 1.3 µM
CCCCCCCCCCCCCCCCCOC[C@H](COP1(=O)CO[C@@H](Cn2ccc(N)nc2=O)CO1)OCc1ccccc1 | BCBL-1 | - | >1 µM
C=C[C@H](O)C1=C[C@@H](n2cnc3c(N)ncnc32)[C@H](O)[C@@H]1O | P4 | - | >208 µM
CC1(C)C(=O)NN=C1c1cccc(NC(=O)Nc2ccc(F)c(Cl)c2)c1 | NHDF | - | >10 µM
COc1cc2c(cc1[C@@H](C)N[S@@](=O)C(C)(C)C)C=CC(C)(C)O2 | L6 rat skeletal myoblasts | - | 144 µM
Nc1nc(Cl)c2ncn(/C=C3/C[C@H]3CO)c2n1 | MEF | neutral red | 260 µM
O=C(O)c1ccc(N2C(=O)c3cccc([N+](=O)[O-])c3C2=O)cc1O | SH-SY5Y | visual reading / absorbance | >100 µg/mL
CC(C)CN(C[C@@H](O)[C@H](Cc1ccccc1)NC(=O)[C@]12CC[C@@H](C)[C@H](C)[C@H]1C1=CC[C@@H]3[C@@]4(C)CC[C@@H](O)C(C)(C)[C@@H]4CC[C@@]3(C)[C@]1(C)CC2)S(=O)(=O)c1ccc(N)cc1 | HUVEC | absorbance | >100 µM
Cc1cn([C@@H]2C[C@@H](N=[N+]=[N-])[C@H](COP(=O)(OC[C@H]3O[C@@H](n4cc(C)c(=O)[nH]c4=O)C[C@@H]3N=[N+]=[N-])c3ccccc3)O2)c(=O)[nH]c1=O | CEM-SS | - | 33 µM
CC(CCOc1ccc(-c2nnn(C)n2)cc1)CCN1CCN(c2ccncc2)C1=O | RD | - | >25 µM
Nc1nc(N)c2cc3c(ccc4ccccc43)nc2n1 | HCT116 | MTT | 3.88 µM
C=C(C)[C@@H]1CC[C@]2(C(=O)N[C@@H](Cc3ccccc3)[C@H](O)CN(CC(C)C)S(=O)(=O)c3ccc(OC)cc3)CC[C@]3(C)[C@H](CC[C@@H]4[C@@]5(C)CC[C@H](O)C(C)(C)[C@@H]5CC[C@]43C)[C@@H]12 | HUVEC | absorbance | >100 µM
CCCc1cc(=O)[nH]c(SC(C)C(=O)Nc2cccc(Cl)c2)n1 | MT-2 human T-cells | MTT | 60 µM
CCCCCCCCCCCCOCCCOP(=O)(O)CO[C@H](CO)Cn1ccc(N)nc1=O | DAUDI | - | 0.6 µM
Cc1cn([C@@H]2O[C@H](CO)[C@@H](O)[C@@H]2F)c(=O)[nH]c1=O | HELF | - | 3 µg/mL
Cc1cn([C@H]2C[C@H](N=[N+]=[N-])[C@@H](COP(=O)(COc3ccccc3)OC[C@@H]3O[C@H](n4ccc(N)nc4=O)CS3)O2)c(=O)[nH]c1=O | CEM-SS | - | 60 µM
Cc1cn([C@H]2C=C[C@@H](CNC(=O)CC3(C)C[C@@](C)(O)CO3)O2)c(=O)[nH]c1=O | JM | - | >500 µM
O=c1[nH]c(=O)n([C@H]2C[C@H](O)[C@@H](CO)O2)cc1/C=C/Br | HELF | - | 145 µg/mL
CC(C)N(Cc1ccccc1)C(=O)c1ccc(-c2ccc3c(c2)OCO3)cc1 | BJ | - | <13.5 µM
O=c1[nH]c(=O)n([C@@H]2O[C@H](COP(=O)(O)O)[C@@H](O)[C@@H]2O)cc1/C=C/Br | HELF | - | >800 µg/mL
COc1ccc(S(=O)(=O)N(CC(C)C)C[C@@H](O)[C@H](Cc2ccccc2)NC(=O)[C@]23CCC(C)(C)C[C@H]2C2=CC[C@@H]4[C@@]5(C)CC[C@@H](O)C(C)(C)[C@@H]5CC[C@@]4(C)[C@]2(C)CC3)cc1 | HUVEC | absorbance | >100 µM
C[C@H]1[C@@H](OC(=O)CCC(=O)O)O[C@@H]2O[C@@]3(C)CC[C@H]4[C@H](C)CC[C@@H]1[C@@]24OO3 | PM1 | - | >0.6 µM
COc1cc2c(cc1C(C)Nc1ccccc1)C=CC(C)(C)O2 | L6 rat skeletal myoblasts | - | 21 µM
Nc1nc(=O)n([C@@H]2O[C@H](CO)[C@@H](O)[C@@H]2F)cc1I | HELF | - | 10 µg/mL
COc1cc2c(cc1[C@H](C)N(C)c1ccccc1)C=CC(C)(C)O2 | L6 rat skeletal myoblasts | - | 45.4 µM
Cc1cn([C@H]2C[C@H](N=[N+]=[N-])[C@@H](COP(=O)(OC[C@H]3O[C@@H](n4cc(C)c(=O)[nH]c4=O)C[C@@H]3N=[N+]=[N-])OCC(F)(F)F)O2)c(=O)[nH]c1=O | JM | - | >500 µM
CCOC(=O)CCCCCOc1cccc(CN(C(=O)c2ccc(-c3cc(C(F)(F)F)cc(C(F)(F)F)c3)cc2)C(C)C)c1 | HEK 293 | - | >20 µM
COC(=O)[C@H](C)NP(=O)(OCC1C/C1=C/n1cnc2c(=O)[nH]c(N)nc21)Oc1ccccc1 | MEF | - | >206 µM
CCc1cn([C@@H]2O[C@H](CO)[C@@H](O)[C@@H]2O)c(=O)[nH]c1=O | HELF | - | >800 µg/mL
Cc1cn([C@H]2C[C@H](N=[N+]=[N-])[C@@H](CO)O2)c(=O)[nH]c1=O | CEM-SS | - | 142 µM
C#C[C@@H](O)C1=C[C@@H](n2cnc3c(N)ncnc32)[C@H](O)[C@@H]1O | P4 | - | >209 µM
O=C(Nc1cccc(F)c1)Nc1cccc(C2=NNC(=O)C23CCCCC3)c1 | NHDF | - | >31 µM
CC(C)C(CCOc1ccc(-c2ccc(Cl)cc2)cc1)CCN1CCN(c2ccncc2)C1=O | RD | - | >25 µM
CCOC(=O)CCCCCOc1cccc(CN(C(=O)c2ccc(-c3cccc(F)c3)cc2)C(C)C)c1 | HEK 293 | - | >20 µM
Nc1nc2c(ncn2C=C2CC2CO)c(=O)[nH]1 | MEF | - | >429 µM
Cc1cn([C@H]2C=C[C@@H](CO)O2)c(=O)[nH]c1=O | JM | - | 500 µM
CCCCCCCCCCCCOCCCOP1(=O)CO[C@@H](Cn2ccc(N)nc2=O)CO1 | DAUDI | - | 0.6 µM
COC(=O)[C@H](C)NP(=O)(OCC1C/C1=C/n1cnc2c(NC3CC3)nc(N)nc21)Oc1ccccc1 | MEF | neutral red | 101 µM
Cc1cc(COc2ccc(-c3ccc(Cl)cc3)cc2)cc(CN2CCN(c3ccncc3)C2=O)c1 | RD | - | >25 µM
CN(C)C(=O)CN1CC[C@@H](N2CC(=O)N3[C@H](c4ccc5c(c4)OCO5)c4[nH]c5ccccc5c4C[C@@H]3C2=O)C1 | MRC-5 SV2 | resazurin | >64 µM
Nc1nc(N)c2cc3c(nc2n1)CCc1ccccc1-3 | HCF-7 | MTT | 32.4 µM
CC(C)CN(C[C@@H](O)[C@H](Cc1ccccc1)NC(=O)[C@]12CC[C@@H](C)[C@H](C)[C@H]1C1=CC[C@@H]3[C@@]4(C)C[C@@H](O)[C@@H](O)[C@@](C)(CO)[C@@H]4CC[C@@]3(C)[C@]1(C)CC2)S(=O)(=O)c1ccc([N+](=O)[O-])cc1 | HUVEC | absorbance | >100 µM
CN(C)c1ccc(CN2CC[C@@H](N3CC(=O)N4[C@H](c5ccc6c(c5)OCO6)c5[nH]c6ccccc6c5C[C@@H]4C3=O)C2)cc1 | MRC-5 SV2 | resazurin | 2 µM
Cc1ccc(CN(CCOc2ccc(-c3ccc(Cl)cc3)cc2)CCN2CCN(c3ccncc3)C2=O)cc1 | RD | - | >12.5 µM
O=C1[C@H]2Cc3c([nH]c4ccccc34)[C@@H](c3ccc4c(c3)OCO4)N2C(=O)CN1[C@@H]1CCN(CCc2ccccc2)C1 | MRC-5 SV2 | resazurin | 8.1 µM
CCCNc1ccccc1OCCCCC(=O)OCC | RAJI | - | >20 µM
COC(=O)[C@H](C)NP(=O)(OC[C@H]1C/C1=C/n1cnc2c(OC)nc(N)nc21)Oc1ccccc1 | MEF | - | 126 µM
C[C@H](O)C1=C[C@@H](n2cnc3c(N)ncnc32)[C@H](O)[C@@H]1O | P4 | - | >36 µM
CO[C@H]1C[C@H](n2cc(C)c(=O)[nH]c2=O)O[C@@H]1CO | JM | - | >1000 µM
Nc1ncnc2ncn(/C=C3/C(F)C3(CO)CO)c12 | Akata | - | >100 µM
COc1ccc(S(=O)(=O)N(CC(C)C)C[C@@H](O)[C@H](Cc2ccccc2)NC(=O)[C@]23CC[C@@H](C)[C@H](C)[C@H]2C2=CC[C@@H]4[C@@]5(C)C[C@@H](O)[C@@H](O)[C@@](C)(CO)[C@@H]5CC[C@@]4(C)[C@]2(C)CC3)cc1 | HUVEC | absorbance | >100 µM
CC(C)n1c(-c2cccc(NC(=O)Nc3cccc(Cl)c3)c2)n[nH]c1=O | NHDF | - | 20 µM
N#Cc1c(SCc2ccc(Cl)cc2)sc2c(O)cc(=O)[nH]c12 | MT-2 human T-cells | MTT | >100 µM
CCOC(=O)c1cc(O)c(O)c(O)c1 | U-87 | MTS | >200 µM
Cc1cc(Cl)ccc1NC(=O)Nc1cccc(C2=NNC(=O)C2(C)C)c1 | NHDF | - | >5 µM
CC(C)(CCCN1CCN(c2ccncc2)C1=O)COc1ccc(-c2ccc(Cl)cc2)cc1 | RD | - | >25 µM
C#C[C@H](O)C1=C[C@@H](n2cnc3c(N)ncnc32)[C@H](O)[C@@H]1O | P4 | - | >209 µM
O=C1N(CCN(CCOc2ccc(-c3ccc(Cl)cc3)cc2)Cc2ccccc2)CCN1c1ccncc1 | RD | - | >5 µM
Cc1ccnc2c1NC(=O)c1cccnc1N2C1CC1 | HuT-78 | MTT / microscopy | >7.5 µM
CCCCCCCCCCCCCCCCOP1(=O)CO[C@@H](Cn2ccc(N)nc2=O)CO1 | DAUDI | - | >1 µM
CC(C)Cn1cnc2c(N)nc3ccccc3c21 | CD4+ T-cell | luminescence | 9.6 µM
C[C@H]1[C@H](O)[C@@H](C)/C=C/C=C/C=C/C=C/C=C/C=C/C=C/[C@H](O[C@@H]2O[C@H](C)[C@@H](O)[C@H](N)[C@@H]2O)C[C@@H]2O[C@](O)(C[C@@H](O)C[C@@H](O)CC[C@H](O)[C@@H](O)C[C@@H](O)CC(=O)O[C@H]1C)C[C@H](O)[C@H]2C(=O)O | MDM | MTT | >10 µM
CCCCCCCC/C=C\CCCCCCCOCCCOP1(=O)CO[C@@H](Cn2ccc(N)nc2=O)CO1 | DAUDI | - | >1 µM
CC(=O)C[C@@H]1C[C@H]2[C@H]([C@@H]3c4[nH]c5ccccc5c4CCN13)[C@H](O)C13CC/C=C\CCCCN1CC21CC/C=C\CCCNC13 | A-594 | - | >5 µg/mL
COc1nc(N)nc2c1ncn2C=C1CC1CO | MEF | neutral red | 260 µM
CCN1CCC(O)(/C=C/c2ccc(Cl)cc2)C(C(=O)/C=C/c2ccc(Cl)cc2)C1 | MOLT 4/C8 | - | 14.5 µg/mL
CC(C)N(Cc1cccc(OCCCCCC(=O)OC(=O)O)c1)C(=O)c1ccc(-c2ccc(Cl)c(Cl)c2)cc1 | HEK 293 | - | >20 µM
Br.CN1C=CN(c2cccc(N3C=CN(C)C3)n2)C1 | PC-3 | sulforhodamine / absorbance | >30 µM
CC(C)Oc1cccc(-c2ccc(C(=O)N(Cc3cccc(OCCCCCC(=O)OC(=O)O)c3)C(C)C)cc2)c1 | BJ | - | >20 µM
COC(=O)[C@H](C)NP(=O)(OC[C@H]1C/C1=C/n1cnc2c(OC)nc(N)nc21)Oc1ccccc1 | MEF | neutral red | 126 µM

For reference, 6 entries again:

compound	cells	method	value
C=C(C)[C@@H]1CC[C@]2(C(=O)N[C@@H](Cc3ccccc3)[C@H](O)CN(CC(C)C)S(=O)(=O)c3ccc(OC)cc3)CC[C@]3(C)[C@H](CC[C@@H]4[C@@]5(C)CC[C@H](O)C(C)(C)[C@@H]5CC[C@]43C)[C@@H]12	HUVEC	absorbance	>100 µM
C#C[C@@H](O)C1=C[C@@H](n2cnc3c(N)ncnc32)[C@H](O)[C@@H]1O	P4	-	>209 µM
COc1ccc(S(=O)(=O)N(CC(C)C)C[C@@H](O)[C@H](Cc2ccccc2)NC(=O)[C@]23CC[C@@H](C)[C@H](C)[C@H]2C2=CC[C@@H]4[C@@]5(C)C[C@@H](O)[C@@H](O)[C@@](C)(CO)[C@@H]5CC[C@@]4(C)[C@]2(C)CC3)cc1	HUVEC	absorbance	>100 µM
C[C@H]1[C@@H](OC(=O)CCC(=O)O)O[C@@H]2O[C@@]3(C)CC[C@H]4[C@H](C)CC[C@@H]1[C@@]24OO3	PM1	-	>0.6 µM
COc1ccc(S(=O)(=O)N(CC(C)C)C[C@@H](O)[C@H](Cc2ccccc2)NC(=O)[C@]23CCC(C)(C)C[C@H]2C2=CC[C@@H]4[C@@]5(C)CC[C@@H](O)C(C)(C)[C@@H]5CC[C@@]4(C)[C@]2(C)CC3)cc1	HUVEC	absorbance	>100 µM
N#Cc1c(SCc2ccc(Cl)cc2)sc2c(O)cc(=O)[nH]c12	MT-2 human T-cells	MTT	>100 µM